Anti-infective test results gathered from many reports (values: NIAID ChemDB through PubChem).

Shared fields: growth or infection tests; organism: HIV-1

Rows are shuffled and stem from different studies. ECn is the concentration giving n% inhibition of infection, replication or growth. a–b is a range or a potency band. An empty or dashed field is not shown.

SMILES	strain or isolate	read-out	cells	setting	read by	value
CC1=CC2C(=O)c3cc(OCC(=O)c4ccccc4)c(Br)c(O)c3C(=O)C2C(O)=C1	IIIB	EC50	MT-2	-	MTT	>100 µM
ClC(Cn1ncc2c(NCCc3ccccc3)nc(SCCN3CCOCC3)nc21)c1ccccc1	-	EC50	-	-	-	33.45 µM
COC(=O)CCCNP(=O)(OC[C@@H]1C=C[C@H](n2cc(C)c(=O)[nH]c2=O)O1)Oc1ccccc1	IIIB	EC50	CEM + CEM/0	-	cytopathic effect / trypan blue	≥250 µM
Oc1cccc2ccc(/C=N/Nc3ccccc3)nc12	VB59	EC50	TZM-bl	-	luciferase	16.6 µM
C[C@@H]1CN(C(=O)c2ccccn2)CCN1C(=O)C(=O)c1c[nH]c2cccc(F)c12	-	EC50	HeLa + HELA CD4+/CCR5	-	luciferase	<10 µM
Cc1nnc(-c2ccc(CNC[C@H](O)[C@@]34CC[C@]5(C)[C@H](CC[C@@H]6[C@@]7(C)CC[C@H](OC(=O)[C@H]8C[C@@H](C(=O)O)C8(C)C)C(C)(C)[C@@H]7CC[C@]65C)C3=C(C(C)C)C(=O)C4)cc2)o1	92HT599	EC50	MT-2	-	p24 / ELISA	<1 µM
O=C(O)c1ccc(OCc2nc3ccccc3n3cccc23)cc1	-	EC50	MT-4	-	cytopathic effect / MTT	>8 µM
C=C(COC)COC(=O)N[C@@H](Cc1ccccc1)[C@H](O)CN(CC1CCCC1)S(=O)(=O)c1ccc(OC)cc1	IIIB	EC50	CEM	-	p24	<10 µM
Nc1ccccc1C(=O)N1CCN(C(=O)C(=O)c2c[nH]c3cccc(Cl)c23)CC1	-	EC50	HeLa + HELA CD4+/CCR5	-	luciferase	<10 µM
CC(=O)O[C@@H]1C2[C@]3(CC[C@@]45C[C@@]46CC[C@H](OC(=O)c4ccccc4)C(C)(C)[C@@H]6CCC5[C@]3(C)[C@@H]1OC(C)=O)CO[C@@]1(C(C)(C)O)CC[C@]2(C)O1	NL4-3	EC50	MT-4	-	luciferase	>30 µM
CC(C)C1=C2[C@H]3CC[C@@H]4[C@@]5(C)CC[C@H](OC(=O)[C@H]6C[C@@H](C(=O)O)C6(C)C)C(C)(C)[C@@H]5CC[C@@]4(C)[C@]3(C)CC[C@@]2(CC(=O)NCc2cccc(Cl)c2)CC1=O	92HT599	EC50	MT-2	-	p24 / ELISA	<1 µM
COc1ccc(-c2coc3cc4c(c(OC)c3c2=O)OCO4)cc1OC	MC99 deltaTAT/REV	EC50	1A2	-	syncytia	>125 µg/mL
O=C(O)CCC(NC(=O)c1ccc(OCc2nc3cc(C(F)(F)F)ccc3n3cccc23)cc1)C(=O)O	-	EC50	MT-4	-	cytopathic effect / MTT	>100 µM
Oc1cccc2ccc(/C=N/Nc3ccc(Cl)cc3)nc12	UG070	EC50	TZM-bl	-	luciferase	73.18 µM
CN(C)c1nc(-c2cccnc2)nc2ccc(OS(=O)(=O)O)cc12	NL4-3	EC50	MT-4	-	ELISA	>10 µM
O=C1Nc2ccc(Cl)cc2[C@@](/C=C/C2CC2)(C(F)(F)F)N1	RF	EC90	MT-2	-	plaque count / virus yield	0.0019 µM
O=C(C(=O)N1CCN(C(=O)c2ccccc2S)CC1)c1c[nH]c2cccc(F)c12	-	EC50	HeLa + HELA CD4+/CCR5	-	luciferase	<10 µM
Nc1ccn([C@H]2CC[C@@H](CO)O2)c(=O)n1	Clinical isolate	EC50	MT-4	-	MTT	3.88 µg/mL
CC(C)N1CCN(c2cc(N3CCN(C)C3=O)c3nc(-c4ncc(Cc5ccc(F)cc5)s4)c(O)c(=O)n3c2)CC1	-	EC50	-	50% human serum	p24 / ELISA	0.0125 µM
Cc1ccc(C)c(N/N=C/c2ccc3cccc(O)c3n2)c1	VB59	EC50	TZM-bl	-	luciferase	9.61 µM
CNC(=O)c1ccc(F)c2c(C(=O)CN3CCN(C(=O)c4ccccc4)CC3)c[nH]c12	-	EC50	HeLa	-	luciferase / reporter gene	1–5 µM
CC[C@H](C)[C@H](NC(=O)C[C@H](O)[C@H](CC(C)C)NC(=O)[C@H](CC(N)=O)NC(=O)OCc1ccccc1)C(N)=O	IIIB	EC50	MT-4	-	ELISA / antigen	>1000 µM
CC(C)CC(=O)N[C@H](C(=O)N[C@H](C(=O)N[C@@H](CC(C)C)[C@@H](O)CC(=O)N[C@@H](C)C(=O)N[C@@H](CC(C)C)[C@@H](O)CC(=O)O)C(C)C)C(C)C	IIIB	EC50	H9	-	RT activity	<500 µM
C[C@@H]1CN(C(=O)c2ccc(Br)o2)CCN1C(=O)C(=O)c1c[nH]c2c(F)ccc(F)c12	-	EC50	HeLa + HELA CD4+/CCR5	-	luciferase	<10 µM
Oc1ccc(-c2nc(-c3ccc(Cl)cc3)c(-c3ccc(Cl)cc3)[nH]2)cc1	89BZ167	EC50	PBMC	-	RT activity	13.3 µM
Cc1cn([C@H]2C=C[C@@H](CO)O2)c(=O)[nH]c1=O	IIIB	EC50	CEM + CEM/0	-	cytopathic effect / trypan blue	0.36 µM
COCCOc1cc(Cl)ccc1CNCC[C@@]12CC[C@]3(C)[C@H](CC[C@@H]4[C@@]5(C)CC[C@H](OC(=O)[C@H]6C[C@@H](C(=O)O)C6(C)C)C(C)(C)[C@@H]5CC[C@]43C)C1=C(C(C)C)C(=O)C2	92HT599	EC50	MT-2	-	p24 / ELISA	<1 µM
NC(=O)CCNC(=O)c1ccccc1S	-	EC50	PBMC	-	absorbance	0.527 µM
COC(=O)CNP(=O)(OC[C@@H]1C=C[C@H](n2cc(C)c(=O)[nH]c2=O)O1)Oc1ccccc1	IIIB	EC50	CEM + CEM/0	-	cytopathic effect / trypan blue	6 µM
ClC(Cn1ncc2c(NCCc3ccccc3)nc(Sc3ccccc3)nc21)c1ccccc1	-	EC50	-	-	-	>100 µM
Cc1cc(C)cc(S(=O)(=O)c2c(C(=O)NNCCO)[nH]c3ccc(Cl)cc23)c1	IIIB WT	EC50	C8166	-	p24	<0.006 µM
CC[C@H](C)[C@H](NC(=O)C[C@H](O)[C@H](CC(C)C)NC(=O)[C@H](C)NC(=O)[C@H](C)NC(C)=O)C(N)=O	IIIB	EC50	MT-4	-	ELISA / antigen	>1000 µM
COC(=O)N[C@H](C(=O)NN(Cc1ccc(C#Cc2cccnc2)cc1)C[C@@](O)(Cc1ccccc1)C(=O)N[C@H]1c2ccccc2C[C@H]1O)C(C)(C)C	-	EC50	MT-4	-	cytopathic effect / XTT	>0.75 µM
CC(C)CN(C[C@@H](O)[C@H](Cc1ccccc1)NC(=O)O[C@H]1CCOC1)S(=O)(=O)c1ccc(-c2ccccn2)s1	IIIB	EC50	CEM	-	p24	<10 µM
COC(=O)CCCCCNP(=O)(OC[C@@H]1C=C[C@H](n2cc(C)c(=O)[nH]c2=O)O1)Oc1ccccc1	IIIB	EC50	CEM + CEM/0	-	cytopathic effect / trypan blue	≥250 µM
C=Cc1c(C)c2cc3[nH]c(cc4nc(cc5nc(cc1[nH]2)C(C)=C5CCC(=O)O)C(CCC(=O)O)=C4C)c(C)c3C=C	IIIB	EC50	MT-2	-	p24	1.22 µg/mL
CC(C)=CCc1c(O[C@@H]2O[C@H](CO)[C@@H](O)[C@H](O)[C@H]2O)cc2oc(-c3ccc(O)c(O)c3)c(O)c(=O)c2c1O	MC99 deltaTAT/REV	EC50	1A2	-	syncytia	14 µg/mL
O=C(C(=O)N1CCN(C(=O)c2ccc(Br)cc2S)CC1)c1c[nH]c2cccc(Cl)c12	-	EC50	HeLa + HELA CD4+/CCR5	-	luciferase	<10 µM
CC(C)C1=C2[C@H]3CC[C@@H]4[C@@]5(C)CC[C@H](OC(=O)[C@H]6C[C@@H](C(=O)O)C6(C)C)C(C)(C)[C@@H]5CC[C@@]4(C)[C@]3(C)CC[C@@]2(CC(=O)NCC(C)(C)NC(=O)c2cncnc2)CC1=O	92HT599	EC50	MT-2	-	p24 / ELISA	<1 µM
O=C(C(=O)N1CCN(C(=O)c2cccc(Br)c2)CC1)c1c[nH]c2ccccc12	BRU	EC50	MT-2	-	RT activity	<10 µM
CNc1ccc(C#N)cc1Nc1c2ccccc2nc(-c2cccnc2)[n+]1C	NL4-3	EC50	MT-4	-	ELISA	>10 µM
O=C(O)CCC(NC(=O)c1ccc(Nc2nc3ccccc3n3cccc23)cc1)C(=O)O	-	EC50	MT-4	-	cytopathic effect / MTT	>100 µM
CC(C)CN(C[C@@H](O)[C@H](Cc1ccccc1)NC(=O)O[C@@H]1CCOC1)S(=O)(=O)c1cccc(S(N)(=O)=O)c1	IIIB	EC50	CEM	-	p24	<1 µM
CCCCNc1c(C(=O)C(=O)N2CCN(C(=O)c3ccccc3)CC2)cnc2c1cnn2CC	-	EC50	HeLa	-	luciferase / reporter gene	>5 µM
CCOC(=O)c1ccc(OCc2nc3cc(C(F)(F)F)ccc3n3cccc23)cc1	-	EC50	MT-4	-	cytopathic effect / MTT	>100 µM
CC[C@H](C)[C@H](NC(=O)C[C@H](O)[C@H](CC(C)C)NC(=O)[C@H](C)NC(=O)[C@H](CCC(=O)O)NC(C)=O)C(N)=O	IIIB	EC50	MT-4	-	ELISA / antigen	1000 µM
ClC(Cn1ncc2c(NCc3ccccc3)nc(SC3CCCC3)nc21)c1ccccc1	-	EC50	-	-	-	>100 µM
CC(=O)Nc1ccc(S(=O)(=O)N(CC(C)C)C[C@@H](O)[C@H](Cc2ccccc2)NC(=O)O[C@@H]2CCOC2)cc1	IIIB	EC50	CEM	-	p24	<1 µM
CC1(C)C(=O)c2c(O)c(=O)c(C(=O)NCc3ccc(F)cc3F)cn2CC1NCCCP(=O)(O)O	NL4-3	EC50	MT4-GFP	100% human serum	fluorescence	1.935 µM
Clc1cc(Nc2nc(-c3cccnc3)nc3ccccc23)cc(Cl)c1Cl	NL4-3	EC50	MT-4	-	ELISA	5 µM
CC(C)C1=C2[C@H]3CC[C@@H]4[C@@]5(C)CC[C@H](OC(=O)[C@H]6C[C@@H](C(=O)O)C6(C)C)C(C)(C)[C@@H]5CC[C@@]4(C)[C@]3(C)CC[C@@]2([C@@H](O)CNC(=O)C(C)(C)NC(=O)c2cccc(Cl)c2)CC1=O	92HT599	EC50	MT-2	-	p24 / ELISA	<1 µM
Cc1ccc(C2CC2)c(-c2ccc3c(c2C)CCCO3)c1C(OC1CC1)C(=O)O	NL4-3	EC50	MT-4	-	ATP	0.024 µM
Clc1ccc(C2=CC(c3ccccc3)N(c3ccccc3Cl)N2)cc1	89BZ167	EC50	PBMC	-	RT activity	>100 µM
CNC(=O)c1ccc(F)c2c(C(=O)C(O)N3CCN(C(=O)c4ccccc4)CC3)c[nH]c12	-	EC50	HeLa	-	luciferase / reporter gene	<1 µM
COc1cc(Nc2nc3ccccc3n3cccc23)cc(OC)c1OC	-	EC50	MT-4	-	cytopathic effect / MTT	>100 µM
O=C(N[C@@H](Cc1ccccc1)[C@H](O)CN(CC1CCCC1)S(=O)(=O)c1cccnc1)O[C@H]1CCOC1	IIIB	EC50	CEM	-	p24	<1 µM
O=C(CSc1nc(CCc2ccccc2)nc2sc3c(c12)CCCC3)Nc1ccccc1N1CCOCC1	-	EC50	-	-	-	66.5 µM
CC(C)C1=C2[C@H]3CC[C@@H]4[C@@]5(C)CC[C@H](OC(=O)[C@H]6C[C@@H](C(=O)O)C6(C)C)C(C)(C)[C@@H]5CC[C@@]4(C)[C@]3(C)CC[C@@]2(CCN(CCN(C)C)Cc2cncnc2)CC1=O	92HT599	EC50	MT-2	-	p24 / ELISA	<1 µM
COC(=O)c1cc2c(c(OC)c1-c1ccc(N(C)C)cc1)OCO2	KM018	EC50	PBMC	-	p24 / ELISA	2.32 µg/mL
CC(C)(C)OC(=O)N[C@@H](Cc1ccccc1)[C@H](O)CN(CC1CCCC1)S(=O)(=O)c1ccc(Cl)c(Cl)c1	IIIB	EC50	CEM	-	p24	<10 µM
O=C(C(=O)N1CCN(C(=O)c2ccccc2)CC1)c1cccc2[nH]ccc12	-	EC50	HeLa	-	luciferase / reporter gene	<1 µM
Cc1cn([C@H]2C=C[C@@H](COC(=O)CCCCCCCCCCC(=O)O)O2)c(=O)[nH]c1=O	US/92/727	EC50	PBMC	-	XTT	0.0183 µM
COc1cc(OCc2nc3cc(C(F)(F)F)ccc3n3cccc23)cc(OC)c1OC	-	EC50	MT-4	-	cytopathic effect / MTT	>100 µM
COc1cc(O)c2c(c1)OC(c1ccc(Oc3cc(-c4cc(=O)c5c(O)cc(O)cc5o4)ccc3O)cc1)CC2=O	MC99 deltaTAT/REV	EC50	1A2	-	syncytia	0.9 µg/mL
O=S(=O)(O)n1ccc2c(Cl)c(O)c(O)cc21	-	EC50	CEM + CEM-SS	-	cytopathic effect / XTT	10.6 µg/mL
O=C(O)c1ccc(Nc2nc3ccccc3n3cccc23)cc1	-	EC50	MT-4	-	cytopathic effect / MTT	>100 µM
Oc1ccc(-c2nc3c4cc(I)ccc4c4ccccc4c3[nH]2)cc1	89BZ167	EC50	PBMC	-	RT activity	9.44 µM
Cc1cc(C)cc(N/N=C/c2ccc3cccc(O)c3n2)c1	VB59	EC50	TZM-bl	-	luciferase	91.85 µM

Repeating the final 10 entries:

SMILES	strain or isolate	read-out	cells	setting	read by	value
COC(=O)c1cc2c(c(OC)c1-c1ccc(N(C)C)cc1)OCO2	KM018	EC50	PBMC	-	p24 / ELISA	2.32 µg/mL
CC(C)(C)OC(=O)N[C@@H](Cc1ccccc1)[C@H](O)CN(CC1CCCC1)S(=O)(=O)c1ccc(Cl)c(Cl)c1	IIIB	EC50	CEM	-	p24	<10 µM
O=C(C(=O)N1CCN(C(=O)c2ccccc2)CC1)c1cccc2[nH]ccc12	-	EC50	HeLa	-	luciferase / reporter gene	<1 µM
Cc1cn([C@H]2C=C[C@@H](COC(=O)CCCCCCCCCCC(=O)O)O2)c(=O)[nH]c1=O	US/92/727	EC50	PBMC	-	XTT	0.0183 µM
COc1cc(OCc2nc3cc(C(F)(F)F)ccc3n3cccc23)cc(OC)c1OC	-	EC50	MT-4	-	cytopathic effect / MTT	>100 µM
COc1cc(O)c2c(c1)OC(c1ccc(Oc3cc(-c4cc(=O)c5c(O)cc(O)cc5o4)ccc3O)cc1)CC2=O	MC99 deltaTAT/REV	EC50	1A2	-	syncytia	0.9 µg/mL
O=S(=O)(O)n1ccc2c(Cl)c(O)c(O)cc21	-	EC50	CEM + CEM-SS	-	cytopathic effect / XTT	10.6 µg/mL
O=C(O)c1ccc(Nc2nc3ccccc3n3cccc23)cc1	-	EC50	MT-4	-	cytopathic effect / MTT	>100 µM
Oc1ccc(-c2nc3c4cc(I)ccc4c4ccccc4c3[nH]2)cc1	89BZ167	EC50	PBMC	-	RT activity	9.44 µM
Cc1cc(C)cc(N/N=C/c2ccc3cccc(O)c3n2)c1	VB59	EC50	TZM-bl	-	luciferase	91.85 µM